PubChem BioAssay AID624099 | ICCB-Longwood | 2012
In all, the deposit lists about 21,000 reagents; shown is a random part of them. Over the whole deposit, 497 (2.4%) were called active. 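Higher z means weaker E2 silencing; only reporter increases were scored, and knock-downs that hurt cell survival may mask genuine repressor factors.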 Reagents against one gene are numbered here. Reagent sequences are not shown.

Aim: 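Knock-downs relieving repression by E2 of an HPV18 LCR luciferase reporter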 (primary screen)
Cells: human C33A cervical carcinoma cells (HPV-negative) stably expressing BPV1 E2 and an HPV18 LCR luciferase reporter
Reagents: siRNA pool against human genes, 40 nM
Timing: 72 h
Detection: 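HPV18 LCR reporter light per well, converted to plate-wise z-scores that exclude control wells, and averaged over triplicate plates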
Reading the numbers: mean z-score and z-score: higher = stronger reporter signal, weaker E2 silencing
Call rule: 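Hit if mean z-score reaches 2 and two or more of three replicate z-scores also reach 2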

gene symbol,reagent no.,mean z-score,"z-score, replicate A","z-score, replicate B","z-score, replicate C",outcome
ZHX2 (zinc fingers and homeoboxes 2),1,0.93,1.14,0.69,0.94,inactive
YPEL2 (yippee like 2),1,1.49,1.76,1.16,1.56,inactive
PSMG2 (proteasome assembly chaperone 2),1,0.09,-0.18,-0.06,0.53,inactive
BTNL2 (butyrophilin like 2),1,1.34,1.57,1.25,1.22,inactive
NUDCD1 (NudC domain containing 1),1,-0.37,-0.48,-0.32,-0.32,inactive
LOC401385 (retired record),1,0.13,0.12,,0.15,inactive
REPIN1 (replication initiator 1),1,-2.05,-2.01,-1.9,-2.25,inactive
C5orf46 (chromosome 5 open reading frame 46),1,0.98,1.08,1.32,0.54,inactive
LOC389768,1,-0.54,-0.04,-0.87,-0.72,inactive
SMAD3 (SMAD family member 3),1,0.39,0.34,0.32,0.5,inactive
SMAD3 (SMAD family member 3),2,-0.85,-0.89,-0.73,-0.92,inactive
ACAA2 (acetyl-CoA acyltransferase 2),1,-0.32,-0.2,-0.31,-0.46,inactive
CLUHP3 (CLUH pseudogene 3),1,1.82,1.65,1.83,1.99,inactive
USP33 (ubiquitin specific peptidase 33),1,0.03,0.06,0.06,-0.03,inactive
VLDLR (very low density lipoprotein receptor),1,-0.35,-0.46,-0.22,-0.37,inactive
PLS1 (plastin 1),1,0.03,0.12,0.2,-0.23,inactive
HEMK1,1,-0.61,-0.45,-0.67,-0.71,inactive
C2CD5 (C2 calcium dependent domain containing 5),1,0.86,0.95,0.83,0.8,inactive
EREG (epiregulin),1,-0.52,-0.41,-0.56,-0.58,inactive
"H1-4 (H1.4 linker histone, cluster member)",1,-0.09,-0.27,-0.02,0.04,inactive
"THA1P (threonine aldolase 1, pseudogene)",1,-0.34,-0.06,-0.48,-0.48,inactive
SPATA2 (spermatogenesis associated 2),1,0.8,0.77,0.92,0.7,inactive
HERC2P8 (HERC2 pseudogene 8),1,-0.43,-0.09,-0.42,-0.78,inactive
KCNH8 (potassium voltage-gated channel subfamily H member 8),1,2.17,2.54,2.06,1.91,active
SLC44A4,1,-0.76,-0.59,-0.59,-1.09,inactive
TCEANC2,1,0.02,0.16,0.08,-0.19,inactive
FTCD (formimidoyltransferase cyclodeaminase),1,-0.67,-0.74,-0.51,-0.77,inactive
PSKH1 (protein serine kinase H1),1,-0.14,-0.11,-0.05,-0.25,inactive
TSPAN16 (tetraspanin 16),1,-0.42,-0.33,-0.6,-0.34,inactive
COPZ1 (coat protein complex I subunit zeta 1),1,-1.34,-1.5,-1.17,-1.35,inactive
OR13A1 (olfactory receptor family 13 subfamily A member 1),1,-0.42,-0.41,-0.52,-0.34,inactive
MYL10 (myosin light chain 10),1,-0.18,-0.16,0.15,-0.52,inactive
RBBP8NL (RBBP8 N-terminal like),1,-1.14,-1.39,-1.08,-0.95,inactive
ELF5 (E74 like ETS transcription factor 5),1,-0.51,-0.02,-0.8,-0.72,inactive
ZNF460 (zinc finger protein 460),1,-0.66,-0.66,-0.8,-0.53,inactive
ZNF256 (zinc finger protein 256),1,-0.61,-0.48,-0.64,-0.7,inactive
CD300LF (CD300 molecule like family member f),1,-0.84,-1.12,-0.72,-0.68,inactive
DCD (dermcidin),1,-0.96,-1.02,-1.06,-0.79,inactive
OTOP2 (otopetrin 2),1,-0.07,-0.03,-0.21,0.03,inactive
NIPA1 (NIPA magnesium transporter 1),1,1.96,1.79,2.31,1.78,inactive
CTDSP1 (CTD small phosphatase 1),1,-0.78,-0.69,-1.04,-0.62,inactive
CD200 (CD200 molecule),1,-0.73,-0.6,-0.42,-1.17,inactive
MBIP (MAP3K12 binding inhibitory protein 1),1,0.58,0.37,0.8,0.56,inactive
LOC402596 (retired record),1,1.84,1.73,2.03,1.76,inactive
SLC35H1,1,-0.47,-0.54,-0.31,-0.55,inactive
NFKBIB (NFKB inhibitor beta),1,-0.75,-0.81,-0.85,-0.59,inactive
LINC01567 (long independently transcribed non-coding RNA 1567),1,-0.3,-0.26,-0.34,-0.29,inactive
BBLN (bublin coiled coil protein),1,-2.51,-2.5,-2.6,-2.43,inactive
KLF14 (KLF transcription factor 14),1,0.11,0.26,0.08,-0.01,inactive
KCNJ16 (potassium inwardly rectifying channel subfamily J member 16),1,-0.27,-0.26,-0.27,-0.26,inactive
SLC6A10P,1,-0.47,-0.67,-0.49,-0.25,inactive
"PCDHGA4 (protocadherin gamma subfamily A, 4)",1,0.82,0.3,1.15,1.01,inactive
"RAP2A (RAP2A, member of RAS oncogene family)",1,1.39,1.07,1.33,1.77,inactive
MAK16 (MAK16 homolog),1,-1.37,-1.24,-1.46,-1.42,inactive
TIMD4 (T cell immunoglobulin and mucin domain containing 4),1,-0.26,-0.06,-0.21,-0.52,inactive
FBXO5 (F-box protein 5),1,-0.07,-0.27,0.12,-0.07,inactive
TRA2A (transformer 2 alpha homolog),1,0.81,0.9,1.31,0.21,inactive
BLOC1S6 (biogenesis of lysosomal organelles complex 1 subunit 6),1,-0.59,-0.54,-0.48,-0.75,inactive
EBLN2 (endogenous Bornavirus like nucleoprotein 2),1,1.67,1.76,1.67,1.57,inactive
SELP (selectin P),1,0.34,0.22,0.28,0.51,inactive
CLCA2 (chloride channel accessory 2),1,-0.28,-0.06,-0.34,-0.43,inactive
CLPSL1 (colipase like 1),1,0.43,0.3,0.64,0.36,inactive
BATF (basic leucine zipper ATF-like transcription factor),1,0.54,0.85,0.48,0.29,inactive
LOC401188 (retired record),1,0.79,0.36,0.98,1.03,inactive
LOC391707 (chromatin accessibility complex subunit 1 pseudogene),1,0.22,0.33,0.17,0.16,inactive
ZFAND3 (zinc finger AN1-type containing 3),1,2.1,2.53,2.06,1.7,active
KLHDC8B (kelch domain containing 8B),1,-0.16,-0.46,-0.22,0.19,inactive
SLURP1 (secreted LY6/PLAUR domain containing 1),1,-0.67,-0.72,-0.94,-0.34,inactive
TRIM14 (tripartite motif containing 14),1,-1.27,-0.92,-1.3,-1.6,inactive
FEM1A (fem-1 homolog A),1,-1.03,-1.3,-0.66,-1.12,inactive
GRM3 (glutamate metabotropic receptor 3),1,-0.34,-0.16,-0.2,-0.66,inactive
PAGE2 (PAGE family member 2),1,-0.38,-0.65,-0.16,-0.32,inactive
REXO4 (RNA exonuclease 4),1,1.18,0.96,1.32,1.27,inactive

Hits, of those listed so far:
gene symbol,reagent no.,mean z-score,"z-score, replicate A","z-score, replicate B","z-score, replicate C",outcome
KCNH8 (potassium voltage-gated channel subfamily H member 8),1,2.17,2.54,2.06,1.91,active
ZFAND3 (zinc finger AN1-type containing 3),1,2.1,2.53,2.06,1.7,active
